PubChem BioAssay AID1259414 – Drosophila RNAi Screening Center, 2018
The deposit covers about 24,000 reagents; below is an unselected part of those with a known target gene and a result. Over the whole deposit, about 1,210 (5%) were called active. 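Inactive calls also include excluded dsRNAs with several or no targets, genes unexpressed in JW18, and well A1, regardless of score.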 The numbers tell different reagents against one gene apart. No sequences are given here.

- Test: 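Genome-wide screen for host control of endosymbiont load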 (primary screen)
- System: Drosophila JW18 cells infected with Wolbachia
- Knock-down reagent: long dsRNA against Drosophila genes, 0.25 µg dsRNA per well of a 384-well plate
- Time to read-out: 5 days
- Treatment: cells persistently infected with Wolbachia before knock-down; no added drug
- Read-out: 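Automated imaging of bacterial rRNA staining divided by host cell count, reported as plate-normalised robust z-score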
- Reading the numbers: Wolbachia per cell robust z: higher = more Wolbachia per host cell than the plate typical
- Rule for the call: 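Active if absolute robust z reaches 1.5 in two or more of three replicates, leaving out multi- or no-target dsRNAs, genes unexpressed in JW18 and A1 wells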

target | reagent | Wolbachia per cell robust z, rep 1 | Wolbachia per cell robust z, rep 2 | Wolbachia per cell robust z, rep 3 | call
CG3638 | 1 | -1.82 | -1.25 | -0.171 | inactive
CG3638 | 2 | 0.418 | 0.7 | 3.23 | inactive
Tsc1 | 1 | 0.798 | 0.628 | 2.51 | inactive
Tsc1 | 2 | 0.456 | -1.06 | -1.26 | inactive
scra (scraps) | 1 | 1.25 | 2.87 | 1.25 | inactive
upSET | 1 | -2.19 | -0.12 | -0.295 | inactive
CG6980 | 1 | -1.06 | 0.0489 | -0.0763 | inactive
CG6980 | 2 | 0.764 | -4.45 | 1.05 | inactive
CG6362 | 1 | 0.0358 | -0.292 | -0.327 | inactive
CG6362 | 2 | 0.672 | -1.5 | -1.07 | inactive
Ssu72 (Ssu72 CTD phosphatase) | 1 | -0.488 | 0.429 | -0.363 | inactive
Ssu72 (Ssu72 CTD phosphatase) | 2 | -0.41 | 0.0306 | -1.06 | inactive
Ssu72 (Ssu72 CTD phosphatase) | 3 | 0.788 | -0.585 | 0.834 | inactive
MstProx | 1 | -1.46 | -2.59 | -1.04 | inactive
MstProx | 2 | 1.07 | 0.313 | 0.73 | inactive
MsR2 (Myosuppressin receptor 2) | 1 | 0.101 | -0.0611 | -0.0635 | inactive
MsR2 (Myosuppressin receptor 2) | 2 | 0.547 | 0.317 | -0.0267 | inactive
MsR2 (Myosuppressin receptor 2) | 3 | 0.652 | 0.431 | -0.125 | inactive
MsR2 (Myosuppressin receptor 2) | 4 | -2.11 | -0.0482 | -2.17 | inactive
Fum4 (Fumarase 4) | 1 | 0.438 | -0.164 | -0.0121 | inactive
Fum4 (Fumarase 4) | 2 | 1.33 | -0.579 | 1.69 | inactive
CG16956 | 1 | -0.163 | -0.156 | -0.692 | inactive
CG33253 | 1 | 0.984 | 0.191 | -3.02 | inactive
CG33253 | 2 | 0.717 | 0.83 | 0.496 | inactive
Oseg6 (Outer segment 6) | 1 | -0.0279 | 0.0459 | -2.49 | inactive
Or85f (Odorant receptor 85f) | 1 | -5.81 | -1.03 | -0.656 | inactive
CG7903 | 1 | 1.16 | -4.02 | -0.479 | inactive
CG7903 | 2 | -3.13 | 0.27 | 0.617 | inactive
mt:ND4 (mitochondrial NADH-ubiquinone oxidoreductase chain 4) | 1 | -0.0737 | 0.0679 | -0.449 | inactive
CG17292 | 1 | -0.0951 | -0.123 | -2.4 | inactive
CG17292 | 2 | 0.228 | 0.0602 | 0.377 | inactive
CG30394 | 1 | 0.351 | -0.199 | 0.417 | inactive
CG30394 | 2 | -2.02 | 0.784 | 0.131 | inactive
Manf (Mesencephalic astrocyte-derived neurotrophic factor) | 1 | 0.0588 | 0.338 | 1.33 | inactive
kermit | 1 | 1.38 | 0.203 | 0.0876 | inactive
kermit | 2 | 0.441 | 1.73 | 0.397 | inactive
Mgat4a | 1 | -0.766 | 0.177 | 0.663 | inactive
Mgat4a | 2 | 0.868 | -2.36 | -0.138 | inactive
CSN7 (COP9 signalosome subunit 7) | 1 | 0.522 | 0.435 | 2.05 | inactive
CSN7 (COP9 signalosome subunit 7) | 2 | 0.756 | -0.361 | 0.335 | inactive
gskt (gasket) | 1 | -1.92 | -1.3 | -0.915 | inactive
gskt (gasket) | 2 | 0.275 | 0.81 | 0.595 | inactive
UQCR-C2 (Ubiquinol-cytochrome c reductase core protein 2) | 1 | 0.48 | 0.478 | 1.16 | inactive
UQCR-C2 (Ubiquinol-cytochrome c reductase core protein 2) | 2 | 0.19 | -0.775 | -0.151 | inactive
kat-60L1 (katanin p60-like 1) | 1 | -0.81 | 0.141 | 0.276 | inactive
kat-60L1 (katanin p60-like 1) | 2 | 1.17 | 0.0549 | -0.928 | inactive
CG2663 | 1 | -2.06 | -7.51 | -0.399 | inactive
CG2663 | 2 | -6.14 | 0.388 | -2.08 | inactive
CG30480 | 1 | -0.227 | 0.148 | -0.759 | inactive
CG30480 | 2 | -0.403 | -0.743 | 0.365 | inactive
Nup153 (Nucleoporin 153kD) | 1 | 0.567 | -6.24 | -0.493 | inactive
par-1 | 1 | -0.656 | 1.73 | 3.03 | active
par-1 | 2 | 0.736 | 0.799 | 0.909 | inactive
par-1 | 3 | 0.0141 | 1.06 | 0.152 | inactive
par-1 | 4 | 1.47 | 0.935 | 1.09 | inactive
par-1 | 5 | 0.46 | 0.466 | -0.813 | inactive
par-1 | 6 | -0.122 | -0.27 | 0.263 | inactive
Jwa | 1 | 0.219 | -0.236 | -0.179 | inactive
Jwa | 2 | 0.11 | -0.354 | 0.782 | inactive
Nse4 (Non-SMC element 4) | 1 | -1.57 | -0.15 | -0.373 | inactive
Nse4 (Non-SMC element 4) | 2 | 0.247 | -0.686 | -0.903 | inactive
Ccp84Ae | 1 | -0.441 | 0.739 | -0.958 | inactive
Ccp84Ae | 2 | 0.318 | -9.5 | -0.798 | inactive
Ccp84Ae | 3 | 0.971 | 0.654 | -0.0893 | inactive
Gdi (GDP dissociation inhibitor) | 1 | -0.624 | -0.0617 | 0.134 | inactive
Gdi (GDP dissociation inhibitor) | 2 | 0.156 | -2.29 | -0.79 | inactive
bard | 1 | 0.57 | 1 | 1.27 | inactive
Hinfp (Histone H4 transcription factor) | 1 | 0.486 | 0.068 | -0.204 | inactive
Hinfp (Histone H4 transcription factor) | 2 | -0.556 | -2.06 | -1.07 | inactive

Part of the list above, limited to “Wolbachia per cell robust z, rep 2”.
CSN7 (COP9 signalosome subunit 7) #1: 0.435
CSN7 (COP9 signalosome subunit 7) #2: -0.361
gskt (gasket) #1: -1.3
gskt (gasket) #2: 0.81
UQCR-C2 (Ubiquinol-cytochrome c reductase core protein 2) #1: 0.478
UQCR-C2 (Ubiquinol-cytochrome c reductase core protein 2) #2: -0.775
kat-60L1 (katanin p60-like 1) #1: 0.141
kat-60L1 (katanin p60-like 1) #2: 0.0549
